Pooled drug test results. Numbers come from NIAID ChemDB, via PubChem.

All rows: toxicity to cultured cells; cells: CEM; endpoint: CC50

CCn is the concentration with n% toxicity to the cells. Blank or dashed fields: not listed here. Conditions beyond the fields shown may differ between rows.

smiles | method | result
S=C(Cc1ccccn1)NCc1ccccc1Cl | - | 21.1 µM
CN(C)c1ccnc(SCc2ccc(Cl)cc2)c1C#N | cell count | >100 µg/mL
CN(C)[C@@H]1C(=O)C(C(=O)NCN2CCCC2)=C(O)[C@@]2(O)C(=O)C3=C(O)c4c(O)cccc4[C@@](C)(O)[C@H]3C[C@@H]12 | MTT | >45.5 µM
CCc1c(Sc2cc(C)cc(C)c2)n(CC2CC2)c(=O)[nH]c1=O | - | 21.2 µM
O=C(O)CCC[C@H](NC(=O)c1ccccc1SSc1ccccc1C(=O)N[C@@H](CCCC(=O)O)C(=O)O)C(=O)O | - | >100 µM
CCC1=C(C(=O)Nc2ccc(Cl)c(C(=O)OC(C)C)c2)SCCO1 | - | >100 µg/mL
Cc1ccc(CS(=O)(=O)c2cccc[n+]2[O-])cc1 | cell count | 24 µg/mL
Cc1cccc(C)c1N1C(=O)c2ccc([N+](=O)[O-])cc2C1=O | - | ≥517 µM
Cc1cn([C@@H]2OC3COC4(O)CS(=O)(=O)OC34C2O[Si](C)(C)C(C)(C)C)c(=O)[nH]c1=O | - | >100 µM
N#C/C(=C\c1ccc(O)c(O)c1)C(=O)NCCCCc1ccccc1 | - | 11.8 µM
COc1ccc[n+]([O-])c1SCc1cc(C)ccc1C | cell count | 70 µg/mL
S=C(CCCc1ccccc1)Nc1ccc(Cl)cn1 | - | 46.7 µM
O=C1c2ccc([N+](=O)[O-])cc2C(=O)N1C12CC3CC(CC(C3)C1)C2 | - | >304 µM
CC(C)C(NC(=O)c1ccccc1SSc1ccccc1C(=O)NC(C(=O)O)C(C)C)C(=O)O | - | >100 µM
CC(=O)OCC1OC(SC2C(SC(C)=O)OC(COC(C)=O)C(OC(C)=O)C2OC(C)=O)C(OC(C)=O)C(OC(C)=O)C1OC(C)=O | - | >100 µg/mL
Cc1cccc(C)c1N1C(=O)c2ccccc2C1=O | - | 220 µM
Cc1cc(C)cc(C(=O)c2c(C(C)C)c(=O)[nH]c(=O)n2CC2CCCCC2)c1 | - | 44.7 µM
Nc1ccc(C(=O)NC23CC4CC(CC(C4)C2)C3)cc1 | - | 73.2 µM
[O-][n+]1cccc(Cl)c1SCc1ccccc1 | cell count | >100 µg/mL
N#C/C(=C\c1ccc(O)c(O)c1)C(=O)OCc1ccccc1COC(=O)/C(C#N)=C/c1ccc(O)c(O)c1 | - | 8.5 µM
CCc1c(Sc2cc(C)cc(C)c2)n(Cc2ccccc2)c(=O)[nH]c1=O | - | >1090 µM
O=S(=O)(Cc1ccccc1)c1c(Cl)ccc[n+]1[O-] | cell count | 1.5 µg/mL
N#C/C(=C\c1ccc(O)c(O)c1)C(=O)NCCCCCCCCCCNC(=O)/C(C#N)=C/c1ccc(O)c(O)c1 | - | 2.7 µM
CC[C@H](C)[C@H](NC(=O)C(C)N(C(=O)[C@H](Cc1ccccc1)NC(=O)[C@H](C)NC(=O)OC(C)(C)C)C(Br)CBr)C(=O)N[C@H](C(=O)OC)C(C)C | - | >500 µg/mL
CC1=C(C(=O)Nc2ccc(F)c(C(=O)OC(C)C)c2)SCCO1 | - | >100 µg/mL
Cc1ccc(CS(=O)c2cccc[n+]2[O-])cc1C | cell count | 14 µg/mL
O=C1c2ccccc2C(=O)N1C12CC3CC(CC(C3)C1)C2 | - | >704 µM
CC1=C(C(=O)Nc2ccc(Cl)c(C(=O)OC3CCCCC3C)c2)SCCO1 | - | 12 µg/mL
CC[C@H](C)[C@H](NC(=O)C(C)N(C(=O)[C@H](Cc1ccccc1)NC(=O)[C@H](C)NC(=O)OC(C)(C)C)C(Cl)CCl)C(=O)N[C@H](C(=O)OC)C(C)C | - | >100 µg/mL
COc1ccc(C)cc1CS(=O)(=O)c1cccc[n+]1[O-] | cell count | 43 µg/mL
C=CCN(CC(=O)N[C@H](C(=O)N[C@H](C(=O)OC)C(C)C)[C@@H](C)CC)C(=O)OC(C)(C)C | - | >100 µg/mL
Cc1cc(C)cc(C(=O)c2c(C(C)C)c(=O)[nH]c(=O)n2CC2CC2)c1 | - | >1170 µM
Oc1ccc(/C=C/c2ccc(O)c(O)c2)cc1O | - | 16.8 µM
CC1=C(C(=O)Nc2cc(C(=O)OC(C)C)c(C)cc2F)SCCO1 | - | >100 µg/mL
CCc1c(Oc2cc(C)cc(C)c2)n(CC2CCCC2)c(=O)[nH]c1=O | - | 21.6 µM
CC(C)c1ccc(CS(=O)(=O)c2cccc[n+]2[O-])cc1 | cell count | 9.4 µg/mL
C=CCN(C(=O)[C@H](Cc1ccccc1)NC(=O)[C@H](C)NC(=O)[C@H](C)NC(=O)[C@H](CO)NC(=O)OC(C)(C)C)C(C)C(=O)N[C@H](C(=O)N[C@H](C(=O)OC)C(C)C)[C@@H](C)CC | - | >20 µg/mL
CCCC1=C(C(=O)Nc2ccc(Cl)c(C(=O)OCC)c2)SCCO1 | - | >100 µg/mL
NC(=O)CC[C@H](NC(=O)c1ccccc1SSc1ccccc1C(=O)N[C@@H](CCC(N)=O)C(=O)O)C(=O)O | - | >100 µM
CCCCCCCCCC[N+](C)(C)CCCNCc1c(O)cc2c(c1O)-c1cc(ccc1O)[C@H]1NC(=O)[C@@H]3NC(=O)C4NC(=O)[C@@H](Cc5ccc(c(Cl)c5)Oc5cc3cc(c5O)Oc3ccc(cc3Cl)[C@@H](O)[C@H](NC1=O)C(=O)N[C@@H]2C(=O)O)NC(=O)[C@H](N)c1ccc(O)c(c1)Oc1cc(O)cc4c1 | - | 74 µM
CCCC1(Cc2ccc3ccccc3c2)CC(O)=C(Sc2cc(C)ccc2C)C(=O)O1 | - | 40.1 µM
CCc1c(Sc2cc(C)cc(C)c2)n(CC2CC=CC2)c(=O)[nH]c1=O | - | 59.5 µM
O=[N+]([O-])c1ccc(CS(=O)(=O)c2cccc[n+]2[O-])cc1 | cell count | 7.6 µg/mL
N#C/C(=C\c1ccc(O)c(O)c1)C(=O)NCC1CCCC(CNC(=O)/C(C#N)=C/c2ccc(O)c(O)c2)C1 | - | 11.8 µM
Cc1ccc(C)c(C(CC(=O)O)S(=O)(=O)c2cccc[n+]2[O-])c1 | cell count | 87 µg/mL
N#C/C(=C\c1cc(O)c(O)c(O)c1)C(=O)NCCCNC(=O)/C(C#N)=C/c1cc(O)c(O)c(O)c1 | - | 17.3 µM
CCc1c(Oc2cc(C)cc(C)c2)n(CC2CCC2)c(=O)[nH]c1=O | - | >1210 µM
CCCC(Sc1cccc[n+]1[O-])c1cc(C)ccc1C | cell count | 9.2 µg/mL
O=C(O)c1ccccc1SCc1cc(O)ccc1O | - | 33.3 µM
Cc1cc(C)cc(Sc2c(C(C)C)c(=O)[nH]c(=O)n2CCC2CCCC2)c1 | - | 16.6 µM
Cc1ccc(C)c(C(C)S(=O)(=O)c2cc(C)cc(C)[n+]2[O-])c1 | cell count | >100 µg/mL
N#C/C(=C\c1ccc(O)c(O)c1)C(=O)NCCN1CCN(C(=O)/C(C#N)=C/c2ccc(O)c(O)c2)CC1 | - | 23.1 µM
N#C/C(=C/c1c(Cl)cccc1Cl)S(=O)(=O)c1cccc[n+]1[O-] | cell count | 11 µg/mL
N#C/C(=C\c1ccc(O)c(O)c1)C(=O)NCCCCCNC(=O)/C(C#N)=C/c1ccc(O)c(O)c1 | - | 13 µM
C=CCN(CC(=O)N[C@H](C(=O)N[C@H](C(=O)OC)C(C)C)[C@@H](C)CC)C(=O)[C@@H](N)Cc1ccccc1 | - | >100 µg/mL
O=C(N[C@@H](CO)C(=O)O)c1ccccc1SSc1ccccc1C(=O)N[C@@H](CO)C(=O)O | - | >100 µM
Cc1ccc(C)c(C(CO)S(=O)(=O)c2ccccn2)c1 | cell count | ≥100 µg/mL
Cc1cccc(C)c1NC(=O)c1ccc([N+](=O)[O-])cc1 | - | 99 µM
COC(=O)C[C@H](CCCCN)NC(=O)c1ccccc1SSc1ccccc1C(=O)N[C@@H](CCCCN)CC(=O)OC | - | >100 µM
O=C1c2ccc(Cl)cc2C(=O)N1C12CC3CC(CC(C3)C1)C2 | - | 110 µM
Cc1ccc[n+]([O-])c1SC(C)c1ccccc1 | cell count | 60 µg/mL
Nc1nc2c(ncn2[C@H]2C=C[C@@H](CO)C2)c(=O)[nH]1 | - | 189 µg/mL
COc1ccc([N+](=O)[O-])cc1CS(=O)(=O)c1cccc[n+]1[O-] | cell count | 17 µg/mL
COc1ccc2c(c1)C(=O)N(c1c(C)cccc1C)C2=O | - | >702 µM
O=S(=O)(Cc1c(Cl)cccc1Cl)c1cccc[n+]1[O-] | cell count | 15 µg/mL
CC1=C(C(=O)Nc2ccc(Cl)c(C(=O)OC3CCCCC3)c2)SCCO1 | - | 11 µg/mL
O=S(=O)(Cc1c(Cl)ccc(Cl)c1Cl)c1cccc[n+]1[O-] | cell count | 6.5 µg/mL
Cc1ccc2c(c1)C(=O)N(C13CC4CC(CC(C4)C1)C3)C2=O | - | >336 µM
CC(C)CCC[C@@H](C)[C@H]1CC[C@H]2[C@@H]3CC[C@H]4C[C@@H](CCC=C(c5cc(Cl)c(O)c(C(=O)O)c5)c5cc(Cl)c(O)c(C(=O)O)c5)CC[C@]4(C)[C@H]3CC[C@]12C | - | >300 µg/mL
COc1ccc(OC)c(CS(=O)(=O)c2cccc[n+]2[O-])c1 | cell count | 60 µg/mL

A second listing of 9 rows from above:

smiles	method	result
O=S(=O)(Cc1ccccc1)c1c(Cl)ccc[n+]1[O-]	cell count	1.5 µg/mL
N#C/C(=C\c1ccc(O)c(O)c1)C(=O)NCCCCCNC(=O)/C(C#N)=C/c1ccc(O)c(O)c1	-	13 µM
CC1=C(C(=O)Nc2ccc(Cl)c(C(=O)OC3CCCCC3)c2)SCCO1	-	11 µg/mL
O=C1c2ccc([N+](=O)[O-])cc2C(=O)N1C12CC3CC(CC(C3)C1)C2	-	>304 µM
Cc1ccc(C)c(C(CC(=O)O)S(=O)(=O)c2cccc[n+]2[O-])c1	cell count	87 µg/mL
N#C/C(=C/c1c(Cl)cccc1Cl)S(=O)(=O)c1cccc[n+]1[O-]	cell count	11 µg/mL
Nc1nc2c(ncn2[C@H]2C=C[C@@H](CO)C2)c(=O)[nH]1	-	189 µg/mL
Cc1cccc(C)c1N1C(=O)c2ccc([N+](=O)[O-])cc2C1=O	-	≥517 µM
Cc1cccc(C)c1NC(=O)c1ccc([N+](=O)[O-])cc1	-	99 µM